Protein sequences, listed by entry. Tags and fused reporters are not part of them.
UniProt P51681, whole entry: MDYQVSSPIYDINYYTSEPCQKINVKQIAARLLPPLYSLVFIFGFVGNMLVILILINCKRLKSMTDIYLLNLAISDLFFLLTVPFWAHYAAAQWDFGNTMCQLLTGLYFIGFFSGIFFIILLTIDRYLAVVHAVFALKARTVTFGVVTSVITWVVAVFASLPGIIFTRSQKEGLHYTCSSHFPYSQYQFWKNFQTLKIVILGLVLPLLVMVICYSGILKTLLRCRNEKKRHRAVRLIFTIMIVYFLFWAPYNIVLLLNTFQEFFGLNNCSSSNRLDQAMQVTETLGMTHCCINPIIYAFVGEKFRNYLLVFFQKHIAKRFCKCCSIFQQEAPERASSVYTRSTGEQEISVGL

According to US10973906B2, “Therapeutic peptides and vaccines” (priority 2005, dated 2021):

Key:
CCR5 [1] = target: T1, CCR5 (Homo sapiens, UniProt P51681); assay: biochemical; type: binding; design: expressed in transfected cells; host or cells: GHOST CD4.CCR5
CCR5 [2] = target: T1, CCR5; details: Cf2Th/synR5 cells, gp120 Bal-sCD4 complex
CCR5 [3] = target: T1, CCR5; assay: cell-based; type: binding; design: expressed in transfected cells; host or cells: ChfTh-CCR5 expressing cells (so in the source)
[4] = gp120BaL/sCD4, Cf2Th/synR5 cells

## C[C@@H](N)C(=O)N[C@@H](CO)C(=O)N[C@H](C(=O)N[C@H](C(=O)N[C@H](C(=O)N[C@@H](CC(N)=O)C(=O)N[C@@H](Cc1ccc(O)cc1)C(=O)N[C@H](C(N)=O)[C@@H](C)O)[C@@H](C)O)[C@@H](C)O)[C@@H](C)O [DAPTA, Dala1-peptide T-amide]
CCR5 [1]
  IC50: 0.051 nM
CCR5 [2]
  co-immunoprecipitation of gp120-CD4 complex with CCR5 receptor: prevents co-immunoprecipitation
CCR5 [3]; IC50, inhibition of gp120BaL/sCD4 binding to CCR5, gp120BaL/sCD4, Cf2Th/synR5 cells, 100 nM sCD4
  IC50: 0.055 nM
CCR5 [3]; IC50, inhibition of gp120CM235/sCD4 binding to CCR5, gp120CM235/sCD4, Cf2Th/synR5 cells
  IC50: 0.32 nM
CCR5 [3]; [4]
  Hill slope: −1.07
  inhibition of binding of gp120BaL/sCD4 to CCR5: completely inhibited
